A mixed list of measured activities; the numbers were collected in NIAID ChemDB.

Shared fields: growth or infection tests; species: HIV-1; measure: fold resistance

Conditions beyond the fields shown may differ between rows. Fold resistance: result on the changed form divided by that on wild type.

compound	method	cell line	strain	mutations	result
COC(=O)N[C@H](C(=O)N[C@@H](Cc1ccccc1)[C@@H](O)CN(Cc1ccc(-c2ccccn2)cc1)NC(=O)[C@@H](NC(=O)OC)C(C)(C)C)C(C)(C)C	p24 / luminescence	MT-4	NL4-3	L10I I54V K20R L24I V32I L33F M36I M46I I54M L63P K70Q V82I I84V L89M	>213
Cn1c2ccccc2c2c1cc(C#N)c(=O)n2-c1ccc([N+](=O)[O-])cc1	luciferase	HeLa	Recombinant	RT-M41L V118I M184V	9.8
CN[C@H]1CO[C@@H]2OCC[C@H](OC(=O)N[C@@H](Cc3cccc(OC)c3)[C@H](O)CN(CC(C)C)S(=O)(=O)c3ccc4nc(NC(C)C)sc4c3)[C@@H]21	p24 / luminescence	MT-4	NL4-3	L10I N37D G48V I54V L63P G73C I84V L90M	2.4
O=S(=O)(c1ccccc1)c1ccccc1	XTT	CEM + CEM-SS	Calanolide A-resistant (RT T139I)	RT-T139I	4.32
Nc1nc(NC2CC2)c2ncn([C@H]3C=C[C@@H](CO)C3)c2n1	luciferase	HeLa	Recombinant	RT-M41L A62V S68N G112S M184V	0.6
Cc1ccnc2c1NC(=O)c1cccnc1N2C1CC1	XTT	CEM + CEM-SS	NL4-3	RT-K103N	>100
CCN[C@H]1CO[C@@H]2OCC[C@H](OC(=O)N[C@@H](Cc3cccc(OC)c3)[C@H](O)CN(CC(C)C)S(=O)(=O)c3ccc4nc(NC(C)C)sc4c3)[C@@H]21	p24 / luminescence	MT-4	NL4-3	L10I I54V K20R L24I V32I L33F M36I M46I I54M L63P K70Q V82I I84V L89M	26
CC(C)=CCOc1cc(NC(=S)c2ccoc2C)ccc1Cl	cytopathic effect	CEM	Q-1 (RT T139K Y181C Y188D/Y)	RT-T139K Y181C Y188D/Y	24
Cc1ccc(S(=O)(=O)N(CC(C)C)C[C@@H](O)[C@H](Cc2ccccc2)NC(=O)O[C@H]2CO[C@H]3OCC[C@H]32)cc1	ATP	MT-2	IIIB	8374-P62	5.2
Cc1cn([C@H]2C[C@H](N=[N+]=[N-])[C@@H](CO)O2)c(=O)[nH]c1=O	XTT	CEM + CEM-SS	NL4-3(RT-4XAZT+Y181C)	RT-D67N K70R Y181C T215Y K219Q	40
CN[C@H]1CO[C@@H]2OCC[C@H](OC(=O)N[C@@H](Cc3ccccc3)[C@H](O)CN(CC(C)C)S(=O)(=O)c3ccc4nc(NC5CC5)sc4c3)[C@@H]21	p24 / luminescence	MT-4	NL4-3	L10I N37D G48V I54V L63P G73C I84V L90M	6.4
Cc1cc(S(N)(=O)=O)ccc1NC(=O)COc1ccc(Cl)cc1C(=O)c1cc(Cl)cc(C#N)c1	β-galactosidase	MAGI	NNRTI-resistant (RT V108I)	RT-V108I	1.7
Cc1cn([C@H]2C[C@H](N=[N+]=[N-])[C@@H](CO)O2)c(=O)[nH]c1=O	cytopathic effect	CEM	P-1 (RT-K103N Y144F)	RT-K103N Y144F	10
Cc1ccnc2c1NC(=O)c1cccnc1N2C1CC1	plaque count	HT4 + HT4 LacZ-1	HXB2	RT-M41L T215Y	0.833
N#Cc1cc2[nH]c3ccccc3c2n(-c2ccc([N+](=O)[O-])cc2)c1=O	luciferase	HeLa	NNRTI-resistant	RT-K103N Y181C	2.2
CCOP(=O)(COc1ccc(C[C@H](NC(=O)O[C@H]2CO[C@H]3OCC[C@H]32)[C@H](O)CN(CC(C)C)S(=O)(=O)c2ccc(OC)cc2)cc1)OCC	p24 / ELISA	MT-2	IIIB	I401T	1.4
CC(C)CN(C[C@@H](O)[C@H](Cc1ccccc1)NC(=O)O[C@H]1CCO[C@H]2OCC[C@H]21)S(=O)(=O)c1ccc2nc(NC3CC3)sc2c1	p24 / luminescence	MT-4	NL4-3	L10I L33I M36I M46I I54V K55R I62V L63P A71V G73S V82T L90M I93L	63
Cc1cn([C@H]2C[C@H](N=[N+]=[N-])[C@@H](CO)O2)c(=O)[nH]c1=O	ATP	MT-2	IIIB	LPV-P31 lopinavir-resistant mutant	1.3
CC[C@H]1C(=O)Nc2ccc(F)cc2N1C(=O)OC(C)C	cytopathic effect	CEM	E-2 (RT-V106A)	RT-V106A	10

A second listing of 2 rows from above:

| compound | method | cell line | strain | mutations | result |
|---|---|---|---|---|---|
| Cc1ccnc2c1NC(=O)c1cccnc1N2C1CC1 | XTT | CEM + CEM-SS | NL4-3 | RT-K103N | >100 |
| Nc1nc(NC2CC2)c2ncn([C@H]3C=C[C@@H](CO)C3)c2n1 | luciferase | HeLa | Recombinant | RT-M41L A62V S68N G112S M184V | 0.6 |